Results: PubChem BioAssay AID1053133 (Broad Institute, 2014)
The list shows a part of the results, in another mix than the full data. Results filed as inconclusive are left out. Activity calls are given as the source filed them. No stated cut-off is given here; in the data, active means activity change below about -37% (passing the limit was not always enough); inconclusive means no clear call, values can overlap the other calls; tested in A549 cells.

experiment: blocks a specific stage of Vaccinia orthopoxvirus infection, primary screen, cell-based, single point (AID 1053133); settings: Vaccinia-infected cells, mCherry/Venus stage reporter fluorescence; hits give low values; concentration not given here

Row | SMILES | activity change (mCherry)
1 | COc1ccc(CN2/C(=N\P(=O)(Oc3ccccc3)Oc3ccccc3)Cc3ccccc3C2C2CC2)cc1 (stereo unspecified) | inactive: -8.99%
